Experimental data: patent US20260069689A1, “ANTI-SARS-COV-2-SPIKE GLYCOPROTEIN ANTIBODIES AND ANTIGEN-BINDING FRAGMENTS” (Regeneron, published 2026)

B1: mAb14313 (antibody, V domains shown)
VH: EVQLVESGGGLVQPGRSLRLSCVASGFTFDDSAMHWVRQPPGKGLEWVSGISWNSGIIGYAESVKGRFIISRDNAKNSLFLHMRGLRPEDTAVYYCARDRLELSYYYYGMDVWGQGTTVTVSS
VL: QSVLTQPPSASGTPGQRVTISCSGSSSNIGSNTVNWYQQFPGTAPRLLIYSNDQRPSGIPDRFSGSKSGTSASLAISGLQSEDEADYYCSTWDDSLNGAVFGGGTQLTVLG
B2: mAb14289 (antibody, V domains shown)
VH: QVQLVQSGPEVKKPGASVKVSCKASGYTFTSYAISWVRQAPGQGLEWMGWISAYNGNTNYAQKLQGRVTMTTDTFTSTAYMELRSLRSDDTAVYYCAVPADHITFDYWGQGTLVTVSS
VL: EIVLTQSPGTLSLSPGERATLSCRASQSVSSYLAWYQQKPGQAPRLLIHGASSRATGIPDRFSGSGSGTDFTLTISRLEPEDFAVYYCQQYGSSFLTFGGGTKVEIKR
B3: mAb14255 (antibody, V domains shown)
VH: QVQLQESGPGLVKPSETLSLTCTVSGGSISGYYWSWIRQPPGKGLDWIGYIYYRGNTNYNPSLKSRVTISVDTSNNQFSLKLSSVTAADTAVYYCARYGEGYGDASGYHFDYWGQGTLVTVSS
VL: QSALTQPASVSGSPGQSITISCTGTSSDVGSYNLVSWYQQHPGKAPKLMIYEDSKRPSGVANPFSGSKSGNTASLTISGLQAEDEADYYCSSYAGSSTWVFGGGTKLTVLG
B4: mAb14235 (antibody, V domains shown)
VH: QITLKESGPTLVKPTQTLTLTCTFSGFSLNTGGVGVGWIRQPPGNALEWLALIYWDDDKRYNPSLKTRLTISKDTSKNQVVLTMTNMDPVDTATYFCAHLTIAVIVDFWGQGTLVTVSS
VL: QSALTQPASVSGSPGQSITISCTATSSDVGTYNYVSWFQHHPGKAPKLMIYEVTNRPSGVSNRFSGSKSGNTASLTISGLQAEDEADYYCSSYTTTSIVFGGGTKLTVLG
B5: mAb14257 (antibody, V domains shown)
VH: EVQLVESGGGLVQPGGSLRLSCAASGFTVSRSYMNWVRQAPGKGLEWVSVVFTGGTTKHTDSVKGRFTISRDNSMNTLYLQMNSLRPEDTAVYYCARVAIVETTGAFDIWGQGTMVTVSS
VL: QSVLTQPPSVSGAPGQRVTISCTGTSSNIGADFDVHWYQQFPGTAPKLLIYGHTNRPSGIPDRFSGSKSGTSASLAITGLQAEDEADYYCQSYDSSLSGSVVFGGGTKLTVLG
B6: mAb14247 (antibody, V domains shown)
VH: QITLKESGPTLVKPTQTLTLTCTFSGFSLSTSAVGVGWIRQPPGKALEWLALIYWDDDKRYSPSLKSRLTITKDTSKNQLVLTMTNVDPVDTATYYCAHHTIQLIFDYWGQGTLVTVSS
VL: QSALTQPASVSGSPGQSITISCTATSSDVGNYNYVSWYQQHPGKAPKLMIYEVSNRPSGVSNRFSGSKSGNTASLTISGLQAEDEADYYCSSYTSSSTPLVFGGGTKLTVLG
B7: mAb13458 (antibody, V domains shown)
VH: EVQLVESGGGLVQPGRSLRLSCAASGFTFDDYAMHWVRQAPGKGLEWVSGISWNSGSIGYADSVKGRFTISRDNAKNSLYLQMNSLRAEDTALYYCAKDIGITTPYWGQGTLVTVSS
VL: AIQMTQSPSSLSASVGDRVTITCRASQDIRNDLGWYQQKPGKAPKLLIYSASSLQTGVPSRFSGSGSGTDFTLTISSLHPEDFATYYCLQDYWYTWTFGQGTKVEIKR
B8: mAb13459 (antibody, V domains shown)
VH: B7 VH
VL: B7 VL with W93N, T95V
B9: mAb14315 (antibody, V domains shown)
VH: QVQLVQSGAEVKKPGSSVKVSCKASGDTFSTYAINWVRQAPGQGLEWMGRFIHIFGTANYAQKFQGRVTITADESTSTAYMELRSLRSEDTAVYYCARDGVDYGDYRPDYWGQGTLVTVSS
VL: EIVLTQSPGTLSLSPGERATLSCRASQSVSSNYLAWYQQKPGQAPRLLIYGASSRATGIPERFSGSGSGTDFTLTISRLEPEDFAVYYCQQYGSSLYTFGQGTKLEIKR

Target: SARS-COV-2 RBD extracellular domain expressed with a C-terminal myc-myc-hexahistidine tag (SARS-COV-2 RBD-mmH) (SARS-CoV-2)
Assay: SPR Biacore, mAb captured on anti-hFc, RBD-mmH analyte, 37 C

Binder	RBD monomer bound at 50 nM (RU)
B1	273 RU
B2	186 RU
B3	206 RU
B4	154 RU
B5	242 RU
B6	91.2 RU
B7	213 RU
B8	299 RU
B9	193 RU

Residue numbers refer to the chain shown, from its start.
